ChEMBL document CHEMBL2401726, “Expanding chemical diversity of conotoxins: peptoid-peptide chimeras of the sodium channel blocker μ-KIIIA and its selenopeptide analogues” (2013)

Amino acid sequences for entries named in this document (tags omitted).
UniProt P04775, whole entry, looked up: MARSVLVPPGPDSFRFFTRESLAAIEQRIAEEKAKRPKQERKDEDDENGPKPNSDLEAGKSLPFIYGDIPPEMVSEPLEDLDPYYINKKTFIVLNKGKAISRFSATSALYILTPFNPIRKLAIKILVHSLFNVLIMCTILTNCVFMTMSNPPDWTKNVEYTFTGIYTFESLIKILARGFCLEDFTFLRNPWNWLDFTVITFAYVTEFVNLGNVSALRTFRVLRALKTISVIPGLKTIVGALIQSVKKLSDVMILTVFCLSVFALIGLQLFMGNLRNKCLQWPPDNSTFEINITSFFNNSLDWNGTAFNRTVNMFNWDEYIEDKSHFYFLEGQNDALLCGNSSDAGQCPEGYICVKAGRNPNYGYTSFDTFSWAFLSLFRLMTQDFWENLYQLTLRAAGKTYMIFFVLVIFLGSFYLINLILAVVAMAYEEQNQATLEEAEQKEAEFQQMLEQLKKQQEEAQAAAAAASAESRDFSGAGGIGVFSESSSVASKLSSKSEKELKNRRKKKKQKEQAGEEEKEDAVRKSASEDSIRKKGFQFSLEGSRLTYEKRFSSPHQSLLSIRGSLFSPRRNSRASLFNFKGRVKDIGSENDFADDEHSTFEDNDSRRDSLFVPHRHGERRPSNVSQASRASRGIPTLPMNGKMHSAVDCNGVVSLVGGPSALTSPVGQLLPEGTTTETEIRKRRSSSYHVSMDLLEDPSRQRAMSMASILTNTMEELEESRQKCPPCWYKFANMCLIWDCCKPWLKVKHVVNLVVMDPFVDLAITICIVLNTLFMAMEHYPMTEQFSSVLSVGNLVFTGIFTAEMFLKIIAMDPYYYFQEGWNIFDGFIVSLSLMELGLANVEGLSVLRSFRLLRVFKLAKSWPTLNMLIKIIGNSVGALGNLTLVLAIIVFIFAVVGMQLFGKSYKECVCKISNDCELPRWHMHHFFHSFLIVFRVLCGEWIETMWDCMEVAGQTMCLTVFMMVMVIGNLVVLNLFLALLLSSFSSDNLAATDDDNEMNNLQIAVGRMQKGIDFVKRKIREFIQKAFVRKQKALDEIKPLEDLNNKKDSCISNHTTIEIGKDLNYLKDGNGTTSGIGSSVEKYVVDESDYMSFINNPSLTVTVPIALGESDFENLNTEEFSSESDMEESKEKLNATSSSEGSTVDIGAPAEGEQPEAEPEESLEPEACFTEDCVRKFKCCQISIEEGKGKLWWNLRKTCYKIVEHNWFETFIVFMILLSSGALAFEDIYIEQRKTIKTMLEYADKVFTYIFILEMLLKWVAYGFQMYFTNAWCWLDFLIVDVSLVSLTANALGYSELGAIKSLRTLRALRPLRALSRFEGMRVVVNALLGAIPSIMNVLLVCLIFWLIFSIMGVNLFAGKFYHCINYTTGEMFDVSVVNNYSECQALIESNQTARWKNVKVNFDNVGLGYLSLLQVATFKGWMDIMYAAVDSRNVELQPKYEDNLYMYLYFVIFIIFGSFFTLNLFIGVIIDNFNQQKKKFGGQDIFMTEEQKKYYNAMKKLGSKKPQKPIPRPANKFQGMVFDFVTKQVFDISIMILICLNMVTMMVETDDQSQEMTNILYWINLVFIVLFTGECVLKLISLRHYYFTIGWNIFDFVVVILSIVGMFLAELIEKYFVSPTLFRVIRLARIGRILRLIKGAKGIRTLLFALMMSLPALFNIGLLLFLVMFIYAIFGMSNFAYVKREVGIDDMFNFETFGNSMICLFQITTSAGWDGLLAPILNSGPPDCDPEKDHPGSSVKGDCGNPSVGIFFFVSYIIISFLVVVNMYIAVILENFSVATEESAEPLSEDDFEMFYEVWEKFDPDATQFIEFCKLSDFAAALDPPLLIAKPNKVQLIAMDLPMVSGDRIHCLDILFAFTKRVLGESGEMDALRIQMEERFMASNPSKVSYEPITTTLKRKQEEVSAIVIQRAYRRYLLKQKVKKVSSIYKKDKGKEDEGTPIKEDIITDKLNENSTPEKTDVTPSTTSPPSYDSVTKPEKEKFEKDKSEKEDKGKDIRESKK

Molecular target: Sodium channel protein type 2 subunit alpha (Rattus norvegicus, UniProt P04775)
Conditions: oocyte

Q: `CCCCN1CC(=O)N[C@@H](Cc2c[nH]c3ccccc23)C(=O)N[C@H]2CSSC[C@H](N)C(=O)N[C@H]3CSSC[C@H](NC(=O)[C@H](CCCNC(=N)N)NC(=O)[C@H](CO)NC(=O)[C@H](Cc4cnc[nH]4)NC(=O)[C@H](CC(=O)O)NC(=O)[C@H](CCCNC(=N)N)NC2=O)C(=O)N[C@H](C(N)=O)CSSC[C@H](NC(=O)[C@H](CC(N)=O)NC3=O)C(=O)N[C@@H](CO)C(=O)N[C@@H](CO)C1=O` was tested. Which Kd did it give?
A: 0.29 µM

Q: How did the Kd turn out when `C[C@H](N)C(=O)NC1C[Se][Se]CC2NC(=O)[C@H](CCCNC(=N)N)NC(=O)[C@H](CO)NC(=O)[C@H](Cc3cnc[nH]3)NC(=O)[C@H](CC(=O)O)NC(=O)[C@H](CCCNC(=N)N)NC(=O)[C@H](C)NC(=O)[C@H](Cc3c[nH]c4ccccc34)NC(=O)CN(C)C(=O)[C@H](CO)NC(=O)[C@H](CO)NC(=O)[C@H](CSSC[C@@H](C(N)=O)NC2=O)NC(=O)[C@H](CC(N)=O)NC1=O` (stereo partly specified) was run?
A: 1 µM

Q: Which Kd does the source give for `CCCCCCCCN1CC(=O)N[C@@H](Cc2c[nH]c3ccccc23)C(=O)N[C@H]2CSSC[C@H](N)C(=O)N[C@H]3CSSC[C@H](NC(=O)[C@H](CCCNC(=N)N)NC(=O)[C@H](CO)NC(=O)[C@H](Cc4cnc[nH]4)NC(=O)[C@H](CC(=O)O)NC(=O)[C@H](CCCNC(=N)N)NC2=O)C(=O)N[C@H](C(N)=O)CSSC[C@H](NC(=O)[C@H](CC(N)=O)NC3=O)C(=O)N[C@@H](CO)C(=O)N[C@@H](CO)C1=O` here?
A: 0.4 µM

Q: With `CCCCCCCCN1CC(=O)N[C@@H](Cc2c[nH]c3ccccc23)C(=O)N[C@@H](C)C(=O)N[C@@H](CCCNC(=N)N)C(=O)N[C@@H](CC(=O)O)C(=O)N[C@@H](Cc2cnc[nH]2)C(=O)N[C@@H](CO)C(=O)N[C@@H](CCCNC(=N)N)C(=O)NC2C[Se][Se]CC(NC(=O)[C@H](C)N)C(=O)N[C@@H](CC(N)=O)C(=O)N[C@@H](CSSC[C@@H](C(N)=O)NC2=O)C(=O)N[C@@H](CO)C(=O)N[C@@H](CO)C1=O` (stereo partly specified) as the compound, how does the Kd read?
A: 0.5 µM

Q: Which Kd does the source give for `CCCCN1CC(=O)N[C@@H](Cc2c[nH]c3ccccc23)C(=O)N[C@@H](C)C(=O)N[C@@H](CCCNC(=N)N)C(=O)N[C@@H](CC(=O)O)C(=O)N[C@@H](Cc2cnc[nH]2)C(=O)N[C@@H](CO)C(=O)N[C@@H](CCCNC(=N)N)C(=O)NC2C[Se][Se]CC(NC(=O)[C@H](C)N)C(=O)N[C@@H](CC(N)=O)C(=O)N[C@@H](CSSC[C@@H](C(N)=O)NC2=O)C(=O)N[C@@H](CO)C(=O)N[C@@H](CO)C1=O` (stereo partly specified) here?
A: 1.4 µM

Q: With `CN1CC(=O)N[C@@H](Cc2c[nH]c3ccccc23)C(=O)N[C@H]2CSSC[C@H](N)C(=O)N[C@H]3CSSC[C@H](NC(=O)[C@H](CCCNC(=N)N)NC(=O)[C@H](CO)NC(=O)[C@H](Cc4cnc[nH]4)NC(=O)[C@H](CC(=O)O)NC(=O)[C@H](CCCNC(=N)N)NC2=O)C(=O)N[C@H](C(N)=O)CSSC[C@H](NC(=O)[C@H](CC(N)=O)NC3=O)C(=O)N[C@@H](CO)C(=O)N[C@@H](CO)C1=O` as the compound, how does the Kd read?
A: 0.055 µM
